Measured values from several laboratories, pooled; numbers as filed in NIAID ChemDB.

Shared fields: host cell toxicity; cell line: CV-1; endpoint: CC50

Rows are shuffled and stem from different studies. Blank or dashed fields: not listed here. CCn is the concentration with n% toxicity to the cells.

smiles	method	value
CCCc1cc(=O)oc2c(C(=O)CC)c(O)cc(O)c12	-	10 µg/mL
Nc1nc(=O)c2ncn([C@@H]3O[C@H](CO)[C@@H](O)[C@H]3O)c2c(=O)[nH]1	-	>100 µM
CCCc1cc(=O)oc2c3c(c4c(c12)OC(C)(C)[C@H](O)[C@H]4O)O[C@H](C)[C@@H](C)[C@@H]3O	neutral red	5 µg/mL
COc1c2c(cc3oc(=O)c(-c4ccc(O)cc4O)cc13)OC(C)(CO)CC2	-	23 µg/mL
CCCc1cc(=O)oc2c3c(c4c(c12)OC(C)(C)[C@H](O)[C@@H]4O)O[C@H](C)[C@@H](C)[C@@H]3O	neutral red	50 µg/mL
O=C(OC1OC2COC(=O)c3cc(O)c(O)c(O)c3-c3c(cc(O)c(O)c3O)C(=O)OC2C(OC(=O)c2cc(O)c(O)c(O)c2)C1OC(=O)c1cc(O)c(O)c(O)c1)c1cc(O)c(O)c(Oc2c(C(=O)OC3OC4COC(=O)c5cc(O)c(O)c(O)c5-c5c(cc(O)c(O)c5O)C(=O)OC4C(OC(=O)c4cc(O)c(O)c(O)c4)C3OC(=O)c3cc(O)c(O)c(O)c3)cc(O)c(O)c2O)c1	-	>30 µg/mL
Nc1ncnc2c1ncn2[C@H]1CC[C@H](O)[C@@H]1O	-	100 µg/mL
C[C@@]1(O)[C@H](O)[C@@H](COP(=O)(O)OP(=O)(O)OP(=O)(O)O)O[C@H]1n1ccc2c(N)ncnc21	-	>320 µM
CCCc1cc(=O)oc2c(C(=O)CC)c(O)c3c(c12)OC(C)(C)C=C3	neutral red	100 µg/mL
Nc1ncnc2c1ncn2[C@@H]1CC[C@@H](O)[C@H]1O	-	100 µg/mL
CCCc1cc(=O)oc2cc(OC(=O)CC)c3c(c12)OC(C)(C)C=C3	-	6 µg/mL
CNc1nc(=O)c2ncn([C@@H]3O[C@H](CO)[C@@H](O)[C@H]3O)c2c(=O)[nH]1	-	>100 µM
CCCc1cc(=O)oc2c(C(=O)CC)c(O)c(C(=O)CC)c(O)c12	neutral red	100 µg/mL
Nc1ncnc2c1ncn2[C@@H]1C[C@H](O)[C@@H](O)[C@H]1O	-	>100 µg/mL
O=C(OC1OC2COC(=O)c3cc(Oc4c(C(=O)OC5OC6COC(=O)c7cc(O)c(O)c(O)c7-c7c(cc(O)c(O)c7O)C(=O)OC6C(OC(=O)c6cc(O)c(O)c(O)c6)C5OC(=O)c5cc(O)c(O)c(O)c5)cc(O)c(O)c4O)c(O)c(O)c3-c3c(cc(O)c(O)c3O)C(=O)OC2C(OC(=O)c2cc(O)c(O)c(O)c2)C1OC(=O)c1cc(O)c(O)c(O)c1)c1cc(O)c(O)c(O)c1	-	>30 µg/mL
Nc1ncnc2c1ncn2[C@@H]1C[C@H](N)[C@@H](O)[C@H]1O	-	>100 µg/mL
O=CC(OC(=O)c1cc(O)c(O)c(O)c1Oc1cc2c(c(O)c1O)-c1c(cc(O)c(O)c1O)C(=O)OC(C(OC(=O)c1cc(O)c(O)c(O)c1)C(C=O)OC(=O)c1cc(O)c(O)c(O)c1)C(O)COC2=O)C(OC(=O)c1cc(O)c(O)c(O)c1)C1OC(=O)c2cc(O)c(O)c(O)c2-c2c(cc(O)c(O)c2O)C(=O)OCC1O	-	>30 µg/mL
[N-]=[N+]=N[C@H]1C[C@@H](n2cnc3c(N)ncnc32)[C@H](O)[C@@H]1O	-	>100 µg/mL
O=C(OC[C@H]1O[C@@H](OC(=O)c2cc(O)c(O)c(O)c2)[C@H](O)[C@@H](OC(=O)c2cc(O)c(O)c(O)c2)[C@@H]1O)c1cc(O)c(O)c(O)c1	-	18 µg/mL

The last 2 rows once more:

smiles	method	value
[N-]=[N+]=N[C@H]1C[C@@H](n2cnc3c(N)ncnc32)[C@H](O)[C@@H]1O	-	>100 µg/mL
O=C(OC[C@H]1O[C@@H](OC(=O)c2cc(O)c(O)c(O)c2)[C@H](O)[C@@H](OC(=O)c2cc(O)c(O)c(O)c2)[C@@H]1O)c1cc(O)c(O)c(O)c1	-	18 µg/mL